Results reported in patent publication US20230218663A1, “COMPOSITIONS AND METHODS FOR TREATING A SARS-COV-2 INFECTION” (priority 2020, published 2023).

Columns and labels:
[1] = system: SARS-CoV-2; conditions: Caco-2
[2] = system: Caco2 cells; test: Cell viability assay (CellTiterGlo), Caco2; design: species or system human; conditions: 48 hrs incubation; concentration based on metal content
Procedure: (§1) The CellTiterGlo® luminescent assay (Promega Corporation, Madison, Wis., USA) was performed to detect the cytotoxicity of the selected compounds as previously described^39. Briefly, VeroE6 cells (4×10^4 cells per well) and Caco2 cells (4×10^4 cells per well) were incubated with different concentrations of the individual compound in 96-well plates for 48 hrs, followed by the addition of the substrate and measurement of luminance 10 min later. Ridaura and Au(PEt3)Cl were dissolved in DMSO, and the final percentage of DMSO was kept at 1% in culture medium.

[3] = system: VeroE6 cells; test: Cell viability assay (CellTiterGlo), VeroE6; design: species or system African green monkey; conditions: 48 hrs incubation; concentration based on metal content
Procedure: as §1

Bi(TPyP) (TPyP: tetra(4-pyridyl)porphyrin)
maximal viral load reduction in Caco2 cell culture supernatant [1]: ~3 logs | maximal viral load reduction in the Caco2 cell lysate [1]: ~2 logs | CC50 [2]: > 400 µM | CC50 [3]: > 400 µM
